Tested on: RSV
Assay: Time of addition CPE assay
Assay type: cell-based, RSV Long strain
Details: point of intervention in viral life cycle
Experimental: Assay Description: HEp-2 cells were plated in 96 well black tissue culture plates at 10,000 cells per well in 80 μl and incubated 24 hours at 37° C., 5% CO2. All cell plating was conducted using a Matrix WellMate™ and cells were maintained at room temperature with stirring during the plating process. Compounds were diluted in media to give a final concentration of 25 μM and added to plates at −1, 0, 1, 4, 6, 20 and 24 hours post-infection (p.i.). The cells were infected with RSV Long strain at an MOI of 3 and the assay plates were incubated for six days at 37° C., 5% CO2 and 90% relative humidity.
The Cell Titer Glo® assay was used to determine viability of the cells. The assay plates were equilibrated to room temperature for 10 minutes and then an equal volume of Cell Titer-Glo reagent (Promega Inc.) was added to each well. Plates were incubated for 10 min at room temperature and luminescence was measured using a multi-label plate reader with an integration time of 0.1 s.
A cell-based assay was used to determine the ability of the probe to inhibit different stages of a single round of viral replication. […] Compounds B and F (diamonds and squares, respectively) are of similar chemical structure. The percent cell viability values at each time point for the respective molecules are compared with that of ribavirin (RBV). […]

Row | Compound | MOA
1 | COCCCNC(=O)c1ccc(Cn2c(=O)c3ccccc3n(Cc3ccc(C(C)C)cc3)c2=O)cc1 [Compound A, 4-((1-(4-isopropylbenzyl)-2,4-dioxo-1,2-dihydroquinazolin-3(4H)-yl)methyl)-N-(3-methoxypropyl)benzamide] | post-entry inhibitor
2 | NC(=O)c1ncn([C@@H]2O[C@H](CO)[C@@H](O)[C@H]2O)n1 [ribavirin, reference compound] | post-entry

— US9499496B2, “Inhibitors of respiratory syncytial virus” (University of Kansas, priority 2012, dated 2016)
